These results are taken from PMC5735676, “Leishmania braziliensis SCD6 and RBP42 proteins, two factors with RNA binding capacity”.

Negatives hold for the conditions tested. At least one verdict rests on a figure or table, not on a statement of the authors. Tags and fusion partners may be left off the protein sequences shown.

Series [1] deals with T1, rLbSCD6 (Leishmania braziliensis) (UniProt A4HEG4).
T1 sequence (looked up): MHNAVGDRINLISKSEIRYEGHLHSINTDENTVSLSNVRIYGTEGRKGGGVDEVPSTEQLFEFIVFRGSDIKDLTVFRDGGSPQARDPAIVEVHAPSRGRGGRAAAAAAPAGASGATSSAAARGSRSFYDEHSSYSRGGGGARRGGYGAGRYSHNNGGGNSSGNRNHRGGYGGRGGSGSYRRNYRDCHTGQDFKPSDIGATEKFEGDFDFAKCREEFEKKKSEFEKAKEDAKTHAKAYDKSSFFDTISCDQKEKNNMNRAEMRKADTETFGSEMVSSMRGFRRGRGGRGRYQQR
Description: EMSA. The note with it: direct, digoxigenin-labeled antisense lane; EMSA: 10 mM HEPES pH 7.3, 20 mM KCl, 6 mM MgCl2, 1 mM DTT, 0.05% NP-40, 1 ug/ul heparin, 40 U RNaseOUT, room temperature 20 min, 6% native PAGE 0.5x TBE; recombinant protein; residues 1-294.

Series [2] has as its target T2, rLbRBP42 (Leishmania braziliensis) (UniProt A4HIP3).
T2 sequence (looked up): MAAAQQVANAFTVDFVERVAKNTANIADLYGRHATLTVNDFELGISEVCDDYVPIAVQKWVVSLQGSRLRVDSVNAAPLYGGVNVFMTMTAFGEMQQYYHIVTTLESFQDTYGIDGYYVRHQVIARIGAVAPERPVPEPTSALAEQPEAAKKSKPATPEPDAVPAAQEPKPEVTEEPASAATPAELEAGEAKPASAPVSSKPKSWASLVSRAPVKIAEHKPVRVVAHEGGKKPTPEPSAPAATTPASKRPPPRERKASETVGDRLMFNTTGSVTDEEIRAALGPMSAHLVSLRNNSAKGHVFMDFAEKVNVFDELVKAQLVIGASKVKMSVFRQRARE
Put plainly: EMSA. The note with it: direct, digoxigenin-labeled antisense lane; EMSA: 10 mM HEPES pH 7.3, 20 mM KCl, 6 mM MgCl2, 1 mM DTT, 0.05% NP-40, 1 ug/ul heparin, 40 U RNaseOUT, room temperature 20 min, 6% native PAGE 0.5x TBE; recombinant protein; residues 1-338.

For the sequence “UACAGAAAAUAAAAAAACACACACAAAAUAUAAAAAGAGGAAAGCAUGAUU [3' UTR-II.1 antisense]”, the binding result in series [1] and in series [2] was “no binding” each time.
